Record: PubChem BioAssay AID624099 (ICCB-Longwood, 2012)

- Aim: 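Human genes that papillomavirus E2 requires to repress the HPV18 LCR promoter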 (primary screen)
- Cells: human C33A cervical carcinoma cells (HPV-negative) stably expressing BPV1 E2 and an HPV18 LCR luciferase reporter
- Knock-down reagent: siRNA pool against human genes, 40 nM
- Duration: 72 h
- Measurement: 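Per-well luciferase luminescence, z-scored on each plate against the plate mean and SD with control wells left out, then averaged across three replicate plates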
- Scale: mean z-score and z-score: higher = stronger reporter signal, weaker E2 silencing
- Active means: 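Mean z ≥ 2 together with z ≥ 2 in two or more of the three replicates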
This is an unselected part of about 21,000 reagents tested. 497 of them (2.4%) were called active. 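Higher z means weaker E2 silencing; only reporter increases were scored, and knock-downs that hurt cell survival may mask genuine repressor factors.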 Entries without a mark were called inactive. The numbers tell different reagents against one gene apart. No sequences are given here.

The first 2 records, ahead of the listing:
no.	Gene	reagent	mean z-score	z-score, replicate A	z-score, replicate B	z-score, replicate C
1	FIRRM (GeneID 55732)	1	-0.99	-1.1	-1.21	-0.67
2	CCNJ (GeneID 54619)	1	1.96	1.41	2.59	1.87

Main list, repeating the preview:
no.	Gene	reagent	mean z-score	z-score, replicate A	z-score, replicate B	z-score, replicate C
1	FIRRM (GeneID 55732)	1	-0.99	-1.1	-1.21	-0.67
2	CCNJ (GeneID 54619)	1	1.96	1.41	2.59	1.87
3	CDC123 (GeneID 8872)	1	-0.71	-0.73	-0.85	-0.55
4	TESK1 (GeneID 7016)	1	-0.15	0.08	-0.43	-0.11
5	LOC402633 (retired record) (GeneID 402633)	1	-0.32	-0.5	-0.61	0.14
6	ISX (GeneID 91464)	1	0.1	0.09	0	0.21
7	TNIK (GeneID 23043)	1	-0.94	-0.91	-0.81	-1.1
8	XRCC1 (GeneID 7515)	1	-0.26	-0.07	-0.41	-0.3
9	OSBPL9 (GeneID 114883)	1	-0.16	-0.38	-0.29	0.19
10	SLC25A11 (GeneID 8402)	1	-0.16	0.11	-0.2	-0.38
11	DDX28 (GeneID 55794)	1	-0.59	-0.92	-0.42	-0.43
12	IL15RA (GeneID 3601)	1	0.33	0.47	0.23	0.29
13	MRPL9 (GeneID 65005)	1	-0.35	-0.71	-0.4	0.07
14	RHBDD1 (GeneID 84236)	1	-1.3	-1.26	-1.27	-1.35
15	SHPRH (GeneID 257218)	1	-0.44	-0.4	-0.61	-0.3
16	CD93 (GeneID 22918)	1	0	0.02	0.24	-0.26
17	AFG3L1P (GeneID 172)	1	0	0.25	-0.08	-0.17
18	AFG3L1P (GeneID 172)	2	-0.43		-0.56	-0.29
19	LINC00710 (GeneID 254312)	1	2.01	1.6	2.53	1.9
20	UCN3 (GeneID 114131)	1	0.12	0.24	0.11	0
21	IL15 (GeneID 3600)	1	0.21	0.4	0.25	-0.02
22	TMEM102 (GeneID 284114)	1	-0.84	-0.82	-0.75	-0.94
23	PRKCE (GeneID 5581)	1	0.34	0.67	0.31	0.04
24	HHAT (GeneID 55733)	1	-1.14	-1.2	-1.18	-1.04
25	ANKRD6 (GeneID 22881)	1	0	0.39	-0.04	-0.35
26	COPS9 (GeneID 150678)	1	0.29	-0.04	0.71	0.21
27	PRSS8 (GeneID 5652)	1	0.17	0.2	0.2	0.1
28	LOC401199 (retired record) (GeneID 401199)	1	-0.51	-0.54	-0.44	-0.55
29	PPP2CA (GeneID 5515)	1	-0.04	-0.24	0.53	-0.4
30	KCTD13 (GeneID 253980)	1	-0.31	-0.24	-0.37	
31	PPP1R3D (GeneID 5509)	1	-0.04	0.01	-0.01	-0.13
32	LINC03062 (GeneID 100129066)	1	-0.51	-0.08	-0.73	-0.74
33	PIGL (GeneID 9487)	1	2.22 (active)	1.75	2.2	2.71
34	PLEKHB1 (GeneID 58473)	1	0.59	1.16	0.6	0.01
35	ING1 (GeneID 3621)	1	-0.97	-0.75	-1	-1.14
36	ZNF639 (GeneID 51193)	1	1.49	1.78	1.64	1.04
37	STPG2 (GeneID 285555)	1	0.26	0.23	0.02	0.53
38	LOC389683 (retired record) (GeneID 389683)	1	-0.01	-0.06	-0.09	0.14
39	LOC399975 (GeneID 399975)	1	-0.66	-0.92	-0.57	-0.47
40	NECTIN3 (GeneID 25945)	1	-0.04	-0.08	0	-0.03
41	FUNDC2P2 (GeneID 388965)	1	-0.99	-0.8	-1.09	-1.09
42	KIF25-AS1 (GeneID 100505879)	1	0.72	0.78	0.56	0.82
43	SYNE3 (GeneID 161176)	1	-1.72	-1.58	-2.09	-1.48
44	SYNE3 (GeneID 161176)	2	-0.26	-0.27	-0.01	-0.5
45	DCXR (GeneID 51181)	1	0.5	0.38	0.54	0.59
46	LOC391322 (GeneID 391322)	1	1.52	1.5	1.75	1.31
47	XRCC4 (GeneID 7518)	1	0.43	0	0.54	0.74
48	SV2B (GeneID 9899)	1	0.63	0.28	0.81	0.8
49	KRT8P12 (GeneID 90133)	1	-1.71	-1.86	-1.66	-1.62
50	MAD1L1 (GeneID 8379)	1	1.89	1.69	1.7	2.27
51	WFDC12 (GeneID 128488)	1	-0.9	-0.99	-0.78	-0.93
52	NDUFA8 (GeneID 4702)	1	-0.02	-0.24	0.1	0.08
53	CALR (GeneID 811)	1	1.34	1.47	1.41	1.13
54	MED14 (GeneID 9282)	1	-2.6	-2.8	-2.59	-2.43
55	PLSCR4 (GeneID 57088)	1	1.23	0.98	1.29	1.41
56	RSPH1 (GeneID 89765)	1	0.32	0.51	0.38	0.07
57	GTPBP1 (GeneID 9567)	1	0.27	0.01	0.23	0.57
